For 6 compounds, flash point results are on record in a flash point compilation (Sun et al. 2020).

With `Clc1ccccc1CBr` [1-(bromomethyl)-2-chlorobenzene], the flash point worked out at 109.00 °C. Compound `CC(=O)CBr` [1-bromopropan-2-one] had a flash point of 51.00 °C. Consider `C=CS(=O)(=O)C=C` [1-ethenylsulfonylethene], for which the flash point worked out at 103.00 °C. Regarding `C[CH2][Sn]([Br])([CH2]C)[CH2]C` [bromo(triethyl)stannane], the flash point came to 99.00 °C. The result for `ClP(Cl)c1ccccc1` [dichloro(phenyl)phosphane] reads 102.00 °C; that for `CCCCOP(=O)(OCCCC)OCCCC` [tributyl phosphate], 146.00 °C.
